Laboratory results taken from article PMC5501846, “X-Ray snapshots of a pyridoxal enzyme: a catalytic mechanism involving concerted [1,5]-hydrogen sigmatropy in methionine γ-lyase” (Scientific Reports, 2017).

How the values were obtained:
COCC[C@H](N)C(=O)O = experiment: purified protein; conditions: 100 mM phosphate pH 7.0, 1 mM DTT, 20 μM PLP, 37 °C
C[Se]CC[C@H](N)C(=O)O = experiment: purified protein; conditions: 100 mM phosphate pH 7.0, 1 mM DTT, 20 μM PLP, 37 °C

EhMGL1 (Entamoeba histolytica; Y108F) gave a Km (COCC[C@H](N)C(=O)O) of 4600 ± 370 µM, a kcat (COCC[C@H](N)C(=O)O) of 0.1 s⁻¹ and a kcat/Km (COCC[C@H](N)C(=O)O) of 20 M⁻¹ s⁻¹. The Km (C[Se]CC[C@H](N)C(=O)O) was 740 ± 100 µM, the kcat (C[Se]CC[C@H](N)C(=O)O) was 0.06 s⁻¹ and the kcat/Km (C[Se]CC[C@H](N)C(=O)O) was 80 M⁻¹ s⁻¹.
